Experimental data: patent US5362412A, “Biodegradable bleach stabilizers for detergents” (priority 1991, dated 1994)

These molecules were tested on microorganisms of sludge (assay: Biodegradability, Sturm CO2 Evolution Test). Settings: acclimated microorganisms; typically 26-30 days.

Compound	% of Theoret. CO2
O=C(O)CC(C(=O)O)N(CC(=O)O)CC(=O)O (stereo not drawn) [AspDA, Aspartic acidN,N-diacetic acid]	84%

Same assay, conditions: unacclimated sludge; typically 26-30 days

Compound	% of Theoret. CO2
O=C(O)CCN(CC(=O)O)CC(=O)O [BADA]	73%
O=C(O)CN(CC(=O)O)CC(=O)O [NTA, Nitrilotriacetic acid, reference compound]	73%
O=C(O)CSC(CC(=O)O)C(=O)O (stereo not drawn) [CMMS, Carboxymethylmercaptosuccinic acid]	85%
O=C(O)CC(NC(CC(=O)O)C(=O)O)C(=O)O (stereo not drawn) [ISA, Iminodisuccinic acid]	76%
O=C(O)CNC(CC(=O)O)C(=O)O (stereo not drawn) [AspMA, Aspartic acidN-monoacetic acid]	78%
